In paper PMC3923783:
For at least one entry, the source does not settle the construct or the ends of the probe.

Tested on: His-ORF57 8-120 WT + GST-ALYREF
Test: GST pull-down and UV cross-linking
Conditions: cross-link to ORF57 falls, to GST-ALYREF rises; recombinant protein; protein details: His6,GST; label: radioactive end label

Does GAAGAGG [7merS end-labeled] bind?
Result: binds

Does CAGUCGCGAAGAGG [14merS end-labeled] bind?
Result: binds
